Laboratory results reported in the supplement of paper PMC3578754.

Assays:
Assay in all cases: fold change of IC50 against reference virus; higher = more resistant
[1] = compound: Cc1cn([C@H]2C[C@H](N=[N+]=[N-])[C@@H](CO)O2)c(=O)[nH]c1=O [zidovudine]
Experimental: (§1)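 Cell-culture drug susceptibility tests of virus bearing the reverse transcriptase of each isolate, gathered from many studies.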

[2] = compound: C[C@H](Cn1cnc2c(N)ncnc21)OCP(=O)(O)O [tenofovir]
Experimental: as §1

[3] = compound: Cc1cn([C@H]2C=C[C@@H](CO)O2)c(=O)[nH]c1=O [stavudine]
Experimental: as §1

[4] = compound: O=c1[nH]cnc2c1ncn2[C@H]1CC[C@@H](CO)O1 [didanosine]
Experimental: as §1

[5] = compound: Nc1nc(NC2CC2)c2ncn([C@H]3C=C[C@@H](CO)C3)c2n1 [abacavir]
Experimental: as §1

[6] = compound: Nc1nc(=O)n([C@@H]2CS[C@H](CO)O2)cc1F [emtricitabine]
Experimental: as §1

[7] = compound: Cc1ccnc2c1NC(=O)c1cccnc1N2C1CC1 [nevirapine]
Experimental: as §1

[8] = compound: CC(C)Nc1cccnc1N1CCN(C(=O)c2cc3cc(NS(C)(=O)=O)ccc3[nH]2)CC1 [delavirdine]
Experimental: as §1

[9] = compound: O=C1Nc2ccc(Cl)cc2[C@@](C#CC2CC2)(C(F)(F)F)O1 [efavirenz]
Experimental: as §1

[10] = compound: Nc1ccn([C@H]2CC[C@@H](CO)O2)c(=O)n1 [zalcitabine]
Experimental: as §1

HIV-1 isolate 1073 (reverse transcriptase changes: E6K K20R V35M T39A M41L G45E D67N T69D V118I K122E D123E M184V L210W R211K T215Y L228F A272P L282K E297K, study 15)
fold change of IC50 against reference virus [1]: 2.7 | fold change of IC50 against reference virus [2]: 0.9 | fold change of IC50 against reference virus [3]: 2.7 | fold change of IC50 against reference virus [4]: 1.9 | fold change of IC50 against reference virus [5]: 6.2 | fold change of IC50 against reference virus [6]: 300 | fold change of IC50 against reference virus [7]: 0.2 | fold change of IC50 against reference virus [8]: 0.1 | fold change of IC50 against reference virus [9]: 0.2

HIV-1 isolate 1088 (reverse transcriptase changes: K64R K103N K122P I135T D177E P225H E248D T286A I326V Y342F, study 15)
fold change of IC50 against reference virus [1]: 2.3 | fold change of IC50 against reference virus [2]: 1.4 | fold change of IC50 against reference virus [3]: 1.3 | fold change of IC50 against reference virus [4]: 1.2 | fold change of IC50 against reference virus [5]: 1.1 | fold change of IC50 against reference virus [6]: 1.3 | fold change of IC50 against reference virus [7]: 300 | fold change of IC50 against reference virus [8]: 110 | fold change of IC50 against reference virus [9]: 400

HIV-1 isolate 1111 (reverse transcriptase changes: E6K V35I T39A I47F D67N T69N K70R A98S Y181C T200A R211K F214L T215F D218E K219E E224D L228H V245M T286P, study 15)
fold change of IC50 against reference virus [1]: 14 | fold change of IC50 against reference virus [2]: 1.5 | fold change of IC50 against reference virus [3]: 2.1 | fold change of IC50 against reference virus [4]: 1.6 | fold change of IC50 against reference virus [5]: 2 | fold change of IC50 against reference virus [6]: 4.5 | fold change of IC50 against reference virus [7]: 110 | fold change of IC50 against reference virus [8]: 39 | fold change of IC50 against reference virus [9]: 1.1

HIV-1 isolate 1130 (reverse transcriptase changes: V35I I135L I142V Q145E M184V T200A R211K D250E T286A E297R L301I, study 15)
fold change of IC50 against reference virus [1]: 0.5 | fold change of IC50 against reference virus [2]: 0.6 | fold change of IC50 against reference virus [3]: 0.9 | fold change of IC50 against reference virus [4]: 1.5 | fold change of IC50 against reference virus [5]: 4.1 | fold change of IC50 against reference virus [6]: 300 | fold change of IC50 against reference virus [7]: 1.2 | fold change of IC50 against reference virus [8]: 2.3 | fold change of IC50 against reference virus [9]: 1.4

HIV-1 isolate 1163 (reverse transcriptase changes: K43Q K49R K70R K103N D123E I135M M184V T200A R211K K219Q K223R A272P K275I K281R T286A, study 15)
fold change of IC50 against reference virus [1]: 2.7 | fold change of IC50 against reference virus [2]: 0.7 | fold change of IC50 against reference virus [3]: 1 | fold change of IC50 against reference virus [4]: 1.3 | fold change of IC50 against reference virus [5]: 2.9 | fold change of IC50 against reference virus [6]: ≥ 200 | fold change of IC50 against reference virus [7]: 25 | fold change of IC50 against reference virus [8]: 75 | fold change of IC50 against reference virus [9]: 8.7

HIV-1 isolate 1178 (reverse transcriptase changes: P4S M41L A62V A98G K122E D123N K166R M184V G196E I202V L210W R211K T215Y L228R D237N V245E A272P E297K, study 15)
fold change of IC50 against reference virus [1]: 27 | fold change of IC50 against reference virus [2]: 1.3 | fold change of IC50 against reference virus [3]: 1.1 | fold change of IC50 against reference virus [4]: 1.1 | fold change of IC50 against reference virus [5]: 4.9 | fold change of IC50 against reference virus [6]: ≥ 200 | fold change of IC50 against reference virus [7]: 3.7 | fold change of IC50 against reference virus [8]: 0.4 | fold change of IC50 against reference virus [9]: 1.4 | fold change of IC50 against reference virus [10]: 1.1

HIV-1 isolate 1370 (reverse transcriptase changes: E28A M41L V60I D67G S68G K70R L74V K101E K122E I135T I178M Y181V G190A T215Y K219E, study 83)
fold change of IC50 against reference virus [1]: 177 | fold change of IC50 against reference virus [2]: 2.2 | fold change of IC50 against reference virus [3]: 2.9 | fold change of IC50 against reference virus [4]: 1.6 | fold change of IC50 against reference virus [5]: 4.9 | fold change of IC50 against reference virus [6]: 4.2 | fold change of IC50 against reference virus [7]: ≥ 400 | fold change of IC50 against reference virus [8]: ≥ 250 | fold change of IC50 against reference virus [9]: 700

HIV-1 isolate 1525 (reverse transcriptase changes: S3N V21A E28A T39I L74V Y115F K122E D123E I135T M184V G190S G196E F214L A272P L283I E297V, study 15)
fold change of IC50 against reference virus [1]: 0.6 | fold change of IC50 against reference virus [2]: 0.7 | fold change of IC50 against reference virus [3]: 1.2 | fold change of IC50 against reference virus [4]: 2.9 | fold change of IC50 against reference virus [5]: 20 | fold change of IC50 against reference virus [6]: 300 | fold change of IC50 against reference virus [7]: 500 | fold change of IC50 against reference virus [8]: 3.2 | fold change of IC50 against reference virus [9]: ≥ 500

HIV-1 isolate 1538 (reverse transcriptase changes: V35I T69I R83K K122E D123S I135V S163T E169D D177E I178M V179I M184V R211K V245K E248D A272P K275R R284K, study 15)
fold change of IC50 against reference virus [1]: 0.4 | fold change of IC50 against reference virus [2]: 0.4 | fold change of IC50 against reference virus [3]: 0.7 | fold change of IC50 against reference virus [4]: 1.4 | fold change of IC50 against reference virus [5]: 2.7 | fold change of IC50 against reference virus [6]: 300 | fold change of IC50 against reference virus [7]: 0.8 | fold change of IC50 against reference virus [8]: 0.8 | fold change of IC50 against reference virus [9]: 0.8

HIV-1 isolate 1572 (reverse transcriptase changes: M41L K43Q K49R V60I D67N R83K K101E D123E V179I M184V G190S R211K T215F M230L D237E A272P T286A E297K, study 15)
fold change of IC50 against reference virus [1]: 40 | fold change of IC50 against reference virus [2]: 1.6 | fold change of IC50 against reference virus [3]: 1.9 | fold change of IC50 against reference virus [4]: 1.4 | fold change of IC50 against reference virus [5]: 5.5 | fold change of IC50 against reference virus [6]: ≥ 200 | fold change of IC50 against reference virus [7]: 300 | fold change of IC50 against reference virus [8]: 5.7 | fold change of IC50 against reference virus [9]: ≥ 500

HIV-1 isolate 1630 (reverse transcriptase changes: R83K K101E D123E I202V A272P K281R P294T E297R, study 15)
fold change of IC50 against reference virus [1]: 0.9 | fold change of IC50 against reference virus [2]: 0.9 | fold change of IC50 against reference virus [3]: 0.9 | fold change of IC50 against reference virus [4]: 0.7 | fold change of IC50 against reference virus [5]: 0.7 | fold change of IC50 against reference virus [6]: 0.7 | fold change of IC50 against reference virus [7]: 6.2 | fold change of IC50 against reference virus [8]: 3.2 | fold change of IC50 against reference virus [9]: 3.6

HIV-1 isolate 1636 (reverse transcriptase changes: A98S V106A I135T Q197P R211G F214L A272P T286A E297R, study 15)
fold change of IC50 against reference virus [1]: 1.2 | fold change of IC50 against reference virus [2]: 0.9 | fold change of IC50 against reference virus [3]: 1.1 | fold change of IC50 against reference virus [4]: 0.9 | fold change of IC50 against reference virus [5]: 0.9 | fold change of IC50 against reference virus [6]: 0.8 | fold change of IC50 against reference virus [7]: 150 | fold change of IC50 against reference virus [8]: 17 | fold change of IC50 against reference virus [9]: 2.5

HIV-1 isolate 1644 (reverse transcriptase changes: K11R K20R S68G R83K V118I D123E T165A D177E M184V T200I R211K F214L T215Y Q278E L283I V292I E297R, study 15)
fold change of IC50 against reference virus [1]: 1.3 | fold change of IC50 against reference virus [2]: 0.5 | fold change of IC50 against reference virus [3]: 0.9 | fold change of IC50 against reference virus [4]: 1.2 | fold change of IC50 against reference virus [5]: 2.8 | fold change of IC50 against reference virus [6]: 300 | fold change of IC50 against reference virus [7]: 0.2 | fold change of IC50 against reference virus [8]: 0.2 | fold change of IC50 against reference virus [9]: 0.2

Fold change is the IC50 on the isolate divided by the IC50 on a reference virus; 1 = unchanged, higher = more resistant. Changes are given against the subtype B consensus. No active / inactive call. The values were gathered from many studies (numbered anew) with different assays, which the source does not name. Most viruses are clinical isolates; some are laboratory strains or clones with known resistance changes. Isolates with mixed residues are left out; stretches that were not sequenced show no change. Round top values that many isolates share are read here as limits; other very high values and 0.1 may be limits too.
